Pooled drug test results. Numbers come from NIAID ChemDB, via PubChem.

All rows: tests in culture; species: Hepatitis B virus

Conditions beyond the fields shown may differ between rows.

smiles,setting,endpoint,read by,cells,strain or isolate,result
C[C@H](Cn1cnc2c(N)ncnc21)OCP(=O)(O)O,,EC50,hybridisation,HepG2 2.2.15,,1.5 µM
CC(C)N=C1NC2=C(CCN(C(=O)c3ccc(Br)c(Cl)c3)C2)S(=O)(=O)N1Cc1ccccc1,,EC50,PCR,HepG2.117 cells,Genotype D,>1 µM
N#Cc1cn([C@H]2CC[C@@H](CO)C2)c2ncnc(N)c12,,EC50,,,,3 µM
CCCOCCCCCCN1C[C@H](O)[C@@H](O)[C@H](O)[C@H]1CO,,EC50,,HepG2 2.2.15,,100 µM
CCCOC(=O)[C@]1(C)CC[C@]2(C)CC[C@]3(C)C4=CC=C5C(=CC(=O)C(O)=C5C)[C@]4(C)CC[C@@]3(C)[C@@H]2C1,,EC50,ELISA / antigen,HepG2 2.2.15,,25.4 µM
O=c1[nH]cnc2c1ncn2[C@H]1CC[C@@H](CO)O1,,EC90,,HepG2.2.15,,127 µM
CO[C@@H]1[C@H](OP(O)(=S)OC[C@H]2O[C@@H](n3cnc4c(N)ncnc43)C[C@@H]2O)[C@@H](CO)O[C@H]1n1ccc(=O)[nH]c1=O,,EC50,,HepG2.2.15,,0.213 µM
Nc1nc(=O)n([C@@H]2CC[C@H](CO)O2)cc1F,,EC50,,HepG2 2.2.15,,0.2 µM
C[C@H](COc1cc(N)nc(N)n1)OCP(=O)(O)O,,EC50,,HEPAD79,,3 µg/mL
Nc1ccn([C@H]2CC[C@@H](CO)O2)c(=O)n1,,EC50,,HB611,,1.6–2.8 µM
Nc1ccn([C@@H]2CS[C@H](CO)O2)c(=O)n1,,EC50,antigen / luminescence,,Genotype A,0.17 µM
Nc1ccn([C@@H]2CC[C@H](CO)S2)c(=O)n1,,EC50,,2.2.15,,>0.5 µM
Cc1cn([C@@H]2O[C@H](CO)[C@@H](O)[C@@H]2F)c(=O)[nH]c1=O,,EC90,,HepG2.2.15,,38 µM
Nc1ccn([C@@H]2CS[C@H](CO)O2)c(=O)n1,,EC50,,,M204V,0.96 µM
C[C@@]1(C(=O)O)CC[C@]2(C)CC[C@]3(C)C4=CC(c5c[nH]c6ccc(F)cc56)c5cc(O)c(O)cc5[C@]4(C)CC[C@@]3(C)[C@@H]2C1,,EC50,ELISA / antigen,HepG2 2.2.15,,97.9 µM
Nc1ccn([C@@H]2CS[C@H](CO)O2)c(=O)n1,,EC50,,HepG2.2.15,,0.056 µM
Nc1nc(N)c2ncn(CCOCP(=O)(O)O)c2n1,,EC50,,HepG2 2.2.15,,1.2 µM
Nc1ccn([C@@H]2CS[C@H](CO)O2)c(=O)n1,,EC50,,HepG2 2.2.15,,0.006 µM
Nc1ccn([C@@H]2CS[C@H](CO)O2)c(=O)n1,,EC50,,HepG2,,0.005 µM
Nc1ccn([C@@H]2CS[C@H](CO)O2)c(=O)n1,,EC50,,,,0.064 µM
Nc1ccn([C@@H]2C=C[C@H](CO)O2)c(=O)n1,,EC50,,HepG2.2.15,,<0.1 µM
Nc1ccn([C@H]2CC[C@@H](CO)O2)c(=O)n1,,EC50,,,,2.8 µM
CC(=O)[C@]1(O)CC[C@@]2(O)[C@]1(C)[C@H](OC(=O)/C=C(\C)C(C)C)CC1[C@@]3(C)CC[C@H](OC(=O)/C=C/c4ccccc4)CC3=CC[C@]12O,,EC50,ELISA,2.2.15,G,48.33 µM
COCC(Cn1cnc2c(N)ncnc21)OCP(=O)(O)O,,EC50,,HB611,,32 µM
Nc1nc(N)c2ncn(C[C@@H](CO)OCP(=O)(O)O)c2n1,,EC90,hybridisation,HepG2 2.2.15,,1.3 µM
Nc1nc(=O)n([C@@H]2C[C@@H](O)[C@H](CO)O2)cc1F,,EC50,,2.2.15,,5 µM
CCC(C)CCC[C@H](C)CCN1C[C@H](O)[C@@H](O)[C@H](O)[C@H]1CO,,EC50,,HepG2 2.2.15,,30–100 µM
Nc1nc(=O)n([C@@H]2C[C@@H](F)[C@H](CO)O2)cc1F,,EC50,,HepG2.2.15,,4 µM
O=C(/C=C/c1ccc(O)c(O)c1)O[C@@H]1[C@@H](OC(=O)/C=C/c2ccc(O)c(O)c2)C[C@@](O)(C(=O)O)C[C@@H]1O,,EC50,PCR,HepG2.2.15,,6.1 µM
OC[C@@H]1[C@@H](O)[C@H](O)[C@@H](O)CN1CCCCC1CCCCC1,,EC50,,HepG2 2.2.15,,30 µM
Nc1ncnc2c1ncn2CCP(=O)(O)O,,EC50,,HB611,,>400 µM
COc1cc(O)c2c(=O)c(O)c(-c3ccc(O)cc3)oc2c1,,EC50,PCR,HepG2.2.15,,491 µM
Nc1ncnc2c1ncn2CCOCP(=O)(O)O,,EC90,,HEPAD79,RTM204,~10 µM
Nc1nc2c(ncn2CC(CF)OCP(=O)(O)O)c(=O)[nH]1,,EC50,,HB611,,<16 µM
CCC(=O)c1ccc(O)c(OC)c1,,EC50,PCR,HepG2.2.15,,482 µM
Nc1nc(=O)n([C@@H]2C=C(F)[C@H](CO)O2)cc1F,,EC50,,HEPAD79,RTM204,<3.1 µM
Nc1ccn([C@@H]2CC[C@H](CO)O2)c(=O)n1,,EC50,,2.2.15,,0.01 µM
CNC(=O)[C@]1(C)CC[C@]2(C)CC[C@]3(C)C4=CC=C5C(=CC(=O)C(O)=C5C)[C@]4(C)CC[C@@]3(C)[C@@H]2C1,,EC50,ELISA / antigen,HepG2 2.2.15,,18.4 µM
CC1(C)C2CCC(N3C[C@H](O)[C@@H](O)[C@H](O)[C@H]3CO)C1C2,,EC50,,HepG2 2.2.15,,>100 µM
Cc1cn([C@@H]2C=C[C@H](CO)O2)c(=O)[nH]c1=O,,EC50,,2.2.15,,>10 µM
CCCc1cc(=O)oc2cc(OCC(C)(C)C(=O)OC)c3c(c12)OC(C)(C)C=C3,,EC50,hybridisation,,,4 µg/mL
O=c1[nH]c(=O)n(C[C@@H](CO)OCP(=O)(O)O)cc1F,,EC50,,HB611,,200 µM
CCOC(=O)c1ccc(O)cc1,,EC50,ELISA / antigen,HepG2.2.15,,<44.88 µM
Nc1nccc2c1ncn2C[C@@H](CO)OCP(=O)(O)O,,EC50,,HB611,,<16 µM
O=Cc1cc(O)c(O)c(O)c1,,EC50,PCR,HepG2.2.15,,27.17 µM
Nc1ncnc2c1ncn2[C@@H]1CC[C@H](CO)O1,,EC50,,2.2.15,,5 µM
COCCCCCCCCCN1C[C@H](O)[C@@H](O)[C@H](O)[C@H]1CO,,EC50,,HepG2 2.2.15,,3 µM
Nc1cc(OCCOCP(=O)(O)O)nc(N)n1,,EC50,,HEPAD79,,0.003 µg/mL
Nc1nc2c(ncn2C=C2CC2CO)c(=O)[nH]1,,EC50,,HEPAD79,,>100 µg/mL
C[C@H](Cn1cnc2c(N)ncnc21)OCP(=O)(O)O,,EC50,,,M204I,1.95 µM
Nc1nc(=O)n([C@H]2CS[C@@H](CO)O2)cc1F,,EC90,,HepAD38,RTM204,6.94 µM
C#C[C@@]1(CO)O[C@H](n2cnc3c(N)nc(N)nc32)C[C@H]1O,,EC50,,2.2.15,,>35 µM
Nc1ccn([C@H]2CC[C@H](CO)S2)c(=O)n1,,EC50,,2.2.15,,>0.5 µM
Nc1ccn([C@H]2O[C@@H](CO)C=C2F)c(=O)n1,,EC50,,HepAD38,RTM204,<0.74 µM
C[C@H](Cn1cnc2c(N)ncnc21)OCP(=O)(O)O,,EC50,,HepAD38,,0.05 µg/mL
O=C(C=Cc1ccc(O)c(O)c1)O[C@@H]1C[C@](O)(C(=O)O)C[C@@H](O)[C@H]1O,,EC50,,HepG2.2.15,,>1380 µM
Cc1c(-c2cnccn2)ssc1=S,,EC50,,HepG2 2.2.15,,<50 µM
Nc1ncnc2c1ncn2CCOCP(=O)(O)O,,EC50,antigen / luminescence,,Genotype A,16 µM
Nc1nc(=O)n([C@H]2C[C@H](F)[C@@H](CO)O2)cc1Cl,,EC90,,HepG2.2.15,,>100 µM
Cc1cn([C@H]2C=C[C@@H](CO)O2)c(=O)[nH]c1=O,,EC50,,HepG2 2.2.15,,>100 µM
Nc1nc(=O)n(CC#CCO)cc1F,,EC50,,2.2.15,,100 µM
COc1ccc(N2C(=NC(C)C)NC3=C(CCN(C(=O)c4ccc(Br)c(Cl)c4)C3)S2(=O)=O)cc1,,EC50,PCR,HepG2.117 cells,Genotype D,0.1–1 µM
Cc1c(N)nc(N)nc1OCCOCP(=O)(O)O,,EC50,,HEPAD79,,0.6 µg/mL
Nc1ncnc2c1ncn2[C@@H]1C[C@@H](O)[C@H](CO)O1,,EC50,,2.2.15,,0.1 µM
CCOc1cccc(/C=C/C(=O)O[C@H]2CC[C@@]3(C)C(=CC[C@]4(O)C3C[C@@H](OC(=O)/C=C(\C)C(C)C)[C@@]3(C)[C@]4(O)CC[C@@]3(O)C(C)=O)C2)c1,,EC50,ELISA,HepG2.2.15,,21.92 µM
Nc1ccn([C@@H]2CC[C@H](CO)O2)c(=O)n1,,EC50,,HepG2.2.15,,0.1 µM
COC(=O)[C@H](C)NP(=O)(OC[C@@H]1CC[C@H](n2cnc3c(N)ncnc32)C1)Oc1ccccc1,,EC50,,HepG2 2.2.15,,5 µM
Nc1nc2c(ncn2[C@@H]2C=C[C@H](CO)CC2)c(=O)[nH]1,,EC50,,HepAD38,,6 µg/mL
O=C(/C=C/c1ccc(O)c(O)c1)O[C@H]1[C@@H](OC(=O)/C=C/c2ccc(O)c(O)c2)C[C@](O)(C(=O)O)C[C@@H]1O,,EC50,PCR,HepG2.2.15,,9.8 µM
COc1ccc(Sc2nc(N)nc3c2ncn3CCOCP(=O)(OCC(F)(F)F)OCC(F)(F)F)cc1,,EC50,,,,<0.064 µM
[N-]=[N+]=N[C@@H]1C[C@@H](n2cc(F)c(N)nc2=O)O[C@H]1CO,,EC50,,2.2.15,,0.11 µM
CC1=C(O)C(=O)C=C2C1=CC=C1[C@@]2(C)CC[C@@]2(C)[C@@H]3C[C@](C)(C(=O)O)CC[C@]3(C)CC[C@]12C,,EC50,ELISA / antigen,HepG2 2.2.15,,15.1 µM
Cc1cn([C@H]2C[C@H](N=[N+]=[N-])[C@@H](CO)O2)c(=O)[nH]c1=O,,EC50,,HepG2 2.2.15,,>100 µM
Nc1ncnc2c1ncn2CCOCP(=O)(O)O,,EC50,,HepAD38,,0.05 µg/mL
CC(C)N=C1NC2=C(CCN(C(=O)c3ccc(Br)c(Cl)c3)C2)S(=O)(=O)N1c1ccccc1,,EC50,PCR,HepG2.117,Genotype D,0.1–1 µM
COC(=O)[C@]1(O)C[C@H](OC(=O)/C=C/c2ccc(O)c(O)c2)[C@@H](O)[C@@H](O)C1,,EC50,ELISA / antigen,HepG2.2.15,,2490 µM
C[C@H]1[C@H](C)C[C@@H](C(=O)O[C@@H]2O[C@H](CO[C@@H]3O[C@H](CO)[C@@H](O[C@@H]4O[C@H](C)[C@H](O)[C@@H](O)[C@H]4O)[C@H](O)[C@H]3O)[C@@H](O)[C@H](O)[C@H]2O)C2CC[C@]3(C)C(=CC[C@@H]4[C@@]5(C)C[C@@H](O)[C@H](O)[C@@](C)(CO)[C@@H]5CC[C@]43C)[C@H]21,7 d,EC50,ELISA / antigen,HepG2.2.15,,56.9 µM
CC(=O)[C@]1(O)CC[C@@]2(O)[C@]1(C)[C@H](OC(=O)/C=C(\C)C(C)C)CC1[C@@]3(C)CC[C@H](OC(=O)/C=C/c4cccc(F)c4F)CC3=CC[C@]12O,,EC50,ELISA,HepG2.2.15,,>16.36 µM
Nc1nc(=O)n([C@@H]2CS[C@H](CO)O2)cc1F,,EC50,,HepG2.2.15,,0.04 µM
Nc1nc(=O)n([C@@H]2CS[C@H](CO)O2)cc1F,,EC50,,HepAD38,RTM204,<1.16 µM
COc1ccc2[nH]cc(C3C=C4[C@@](C)(CC[C@@]5(C)[C@@H]6C[C@](C)(C(=O)O)CC[C@]6(C)CC[C@]45C)c4cc(O)c(O)cc43)c2c1,,EC50,ELISA / antigen,HepG2 2.2.15,,67.3 µM
CC1(C)OCC(CCCCN2C[C@H](O)[C@@H](O)[C@H](O)[C@H]2CO)O1,,EC50,,HepG2 2.2.15,,>100 µM
Nc1nc2c(ncn2[C@@H]2C[C@H](CO)[C@H]2CO)c(=O)[nH]1,,EC50,,HepG2 2.2.15,,2.5 µM
Nc1nc(=O)n([C@@H]2O[C@H](CO)[C@@H](O)[C@@H]2F)cc1I,,EC90,,HepG2.2.15,,34 µM
Nc1ccn([C@H]2CC[C@@H](CO)O2)c(=O)n1,,EC50,,2.2.15,,1.4 µM

For reference, 7 entries again:

smiles | setting | endpoint | read by | cells | strain or isolate | result
O=C(C=Cc1ccc(O)c(O)c1)O[C@@H]1C[C@](O)(C(=O)O)C[C@@H](O)[C@H]1O |  | EC50 |  | HepG2.2.15 |  | >1380 µM
CCCOCCCCCCN1C[C@H](O)[C@@H](O)[C@H](O)[C@H]1CO |  | EC50 |  | HepG2 2.2.15 |  | 100 µM
[N-]=[N+]=N[C@@H]1C[C@@H](n2cc(F)c(N)nc2=O)O[C@H]1CO |  | EC50 |  | 2.2.15 |  | 0.11 µM
COCCCCCCCCCN1C[C@H](O)[C@@H](O)[C@H](O)[C@H]1CO |  | EC50 |  | HepG2 2.2.15 |  | 3 µM
Nc1nc(=O)n(CC#CCO)cc1F |  | EC50 |  | 2.2.15 |  | 100 µM
Nc1nc(=O)n([C@@H]2CS[C@H](CO)O2)cc1F |  | EC50 |  | HepG2.2.15 |  | 0.04 µM
O=Cc1cc(O)c(O)c(O)c1 |  | EC50 | PCR | HepG2.2.15 |  | 27.17 µM

Two numbers with a dash give a range or band. ECn: concentration that inhibits the pathogen or its effect by n%. Blank or dashed fields: not listed here.